A mixed list of measured activities; the numbers were collected in NIAID ChemDB.

Shared fields: tests in culture; agent: Candida albicans

ECn is the concentration giving n% inhibition of infection, replication or growth.

structure,endpoint,strain,conditions,method,result
C[C@@H](c1ncncc1F)[C@](O)(Cn1cncn1)c1ccc(F)cc1F,MIC90,Isolate HR-Micro,48 h,,0.39 µg/mL
CCCCCCCCCC(=O)[C@@H](C)C(=O)N[C@@H](CC(C)C)C(=O)N[C@H](C)C(=O)N1CCC[C@H]1C(=O)N[C@H](C(=O)N[C@H]1CSCCNC1=O)C(C)C,EC50,Day185,,broth dilution,3.4 µM
Clc1ccc(C(Cn2ccnc2)OCc2cccc3ccccc23)cc1,MIC,CA7,,,>128 µg/mL
Clc1ccc(CC(Cn2ccnc2)c2ccccc2Br)cc1,MIC,,,,10 µg/mL
CCCCCOc1ccc(-c2ccc(-c3ccc(C(=O)N[C@H]4C[C@@H](O)[C@@H](O)NC(=O)[C@@H]5[C@@H](O)[C@@H](C)CN5C(=O)[C@H]([C@H](C)O)NC(=O)[C@H]([C@H](O)[C@@H](O)c5ccc(O)cc5)NC(=O)[C@@H]5C[C@@H](O)CN5C(=O)[C@H]([C@H](C)O)NC4=O)cc3)cc2)cc1,MIC50,10 strains (fluconazole- itraconazole-susceptible),,,0.06 µg/mL
C/C(=N\NC(=O)CSc1n[nH]c(C)n1)c1ccc(Cl)cc1,MIC,ATCC 90028,,,200 µg/mL
COC(=O)[C@@H]1CCCN1C(=O)COc1c(Br)c(=O)oc2ccccc12,MIC,,,,6.25 µg/mL
C=CCN(CC=C)c1nnc2c(cnc3ccccc32)n1,MIC,VM-71,,,40 µg/mL
CCCCCCCCCC(=O)[C@H](C)C(=O)N[C@@H](CC(C)C)C(=O)N[C@H](C)C(=O)N1CCC[C@H]1C(=O)N[C@H](C(=O)N[C@H]1CSCCNC1=O)C(C)C,MIC,Day185,,broth dilution,>200 µM
O=c1[nH]nc(Cc2ccccc2)n1CCCl,MIC,ATCC16231,,,>250 µg/mL
CN(CCCC#CC(C)(C)C)c1cccc2c1CCC(=O)N2,MIC,Clinical isolate 5,,,15.6 µg/mL
N=C(N)N1CCN(Cc2cccnc2SCc2cccc(F)c2F)CC1,MIC50,SC5314 CAI,,,>100 µg/mL
Cc1ccc(C(C)C)c(O)c1,MIC,H37,,,0.16 µg/mL
O=C(Nc1nc2ccc(NC(=O)[C@@H]3CCC[C@H](NCc4ccc5ccccc5c4)C3)cc2s1)C1CCCC1,MIC,TIMM0144,,,0.39 µM
Cc1ccc(Cc2n[nH]c(=O)n2-c2ccccc2)cc1,MIC,ATCC16231,,,>250 µg/mL
CCc1nc(SCC(=O)N/N=C(\C)c2ccccc2[N+](=O)[O-])n[nH]1,MIC,ATCC 90028,,,200 µg/mL
Cc1ccccc1C(Cc1c(Cl)cccc1Cl)Cn1ccnc1,MIC,,,,>100 µg/mL
COc1nnc2c(cnc3ccccc32)n1,MIC,VM-81,,,40 µg/mL
Clc1ccccc1C(c1ccccc1)(c1ccccc1)n1ccnc1,MIC,ATCC 90028,,,1 µg/mL
CC(C)(C)c1ccc(COC(Cn2ccnc2)c2ccccc2)cc1,MIC,3M,,,>128 µg/mL
COc1ccc(CCC(Cn2ccnc2)c2ccc(Cl)cc2Cl)cc1,MIC,,,,>100 µg/mL
CCOc1cc2c(cc1F)n([O-])c(C)c(S(=O)(=O)c1ccccc1)[n+]2=O,MIC,Clinical isolate 3,,,15.6 µg/mL
CC(N1CCN(c2ccc(-n3cnn(Cc4ccc(OC(F)(F)F)cc4)c3=O)cc2)CC1)C(O)(Cn1cncn1)c1ccc(F)cc1F,MIC,Y0109,,,<0.048 µg/mL
Cc1c(Cl)[n+](=O)c2cc(Cl)ccc2n1[O-],MIC,Clinical isolate 13,,,7.8 µg/mL
CC(=O)OCCn1c(Cc2ccc([N+](=O)[O-])cc2)nn(C(C)=O)c1=O,MIC,ATCC16231,,,>250 µg/mL
Clc1ccc(C(Cn2ccnc2)OC/C=C/c2ccccc2)cc1,MIC,CA6,,,>128 µg/mL
C/C(=N\NC(=O)CSc1ncn[nH]1)c1ccccc1Cl,MIC,ATCC 90028,,,200 µg/mL
CC[C@H](C)[C@H](NC(=O)[C@H](Cc1cnc[nH]1)NC(=O)COc1cc(=O)oc2ccccc12)C(=O)OC,MIC,,,,6.25 µg/mL
Nc1[nH]c(=O)ncc1F,MIC90,126 strains,,,8 µg/mL
N=C(N)N1CCN(Cc2cccnc2SCc2c(F)cccc2F)CC1,MIC50,SC5314 CAI,,,>100 µg/mL
CCc1n[nH]c(=O)n1CCO,MIC,ATCC16231,,,>250 µg/mL
C/C(=N\NC(=O)CSc1n[nH]c(C)n1)c1ccc(O)cc1,MIC,ATCC 90028,,,200 µg/mL
N=C(N)N1CCN(Cc2cccnc2SCc2cc(Br)cc(Br)c2)CC1,MIC50,SC5314 CAI,,,9.4 µg/mL
Cc1ccc(C(Cn2ccnc2)OC/C=C/c2ccccc2)cc1,MIC,Y0109,,,128 µg/mL
O=c1[nH]nc(Cc2ccc(Cl)cc2)n1CCO,MIC,ATCC16231,,,>250 µg/mL
O=C(COc1c(Br)c(=O)oc2ccccc12)N[C@@H](Cc1cnc[nH]1)C(=O)O[C@@H](Cc1c[nH]c2ccccc12)C(=O)O,MIC,,,,6.25 µg/mL
C[C@H]1[C@H](O)[C@@H](C)/C=C/C=C/C=C/C=C/C=C/C=C/C=C/[C@H](O[C@@H]2O[C@H](C)[C@@H](O)[C@H](N)[C@@H]2O)C[C@@H]2O[C@](O)(C[C@@H](O)C[C@@H](O)CC[C@H](O)[C@@H](O)C[C@@H](O)CC(=O)O[C@H]1C)C[C@H](O)[C@H]2C(=O)O,MIC50,126 strains,,,0.06 µg/mL
Cc1ccc(C(Cn2ccnc2)OCc2ccc(-c3ccccc3)cc2)cc1,MIC,3M,,,64 µg/mL
CCc1nc(SCC(=O)N/N=C(\C)c2ccccc2Cl)n[nH]1,MIC,ATCC 90028,,,200 µg/mL
Cc1ncc(-c2ccc(I)cc2C(=O)N[C@H](C(=O)N[C@@H](C)C(=O)N[C@@H](Cc2cnc[nH]2)C(=O)N2CCC[C@H]2C(=O)O)[C@@H](C)O)[nH]1,MIC,,,,6.25 µg/mL
CCC(C)CC(C)/C=C(C)/C=C/CC(C)C(O)C(C)/C=C(C)/C=C/C(O)C(C)c1cc(O)c(C2OC(CO)CC(O)C2O)c(=O)o1,MIC80,ATCC 10231,,,6.25 µg/mL
Clc1ccc(C(Cn2ccnc2)OCc2ccc(-c3ccccc3)cc2)cc1,MIC,CA2,,,>128 µg/mL
CNn1c(-c2ccc(C)cc2)nn(C)c1=O,MIC,ATCC16231,,,>250 µg/mL
N=C(N)N1CCN(Cc2cccnc2SCc2cccc(OC(F)(F)F)c2)CC1,MIC50,SC5314 CAI,,,80 µg/mL
Cc1ccc(C(Cn2ccnc2)OCc2cccc3ccccc23)cc1,MIC,PR1,,,>128 µg/mL
CC(N1CCN(c2ccc(-n3cnn(Cc4ccc(C(F)(F)F)cc4)c3=O)cc2)CC1)C(O)(Cn1cncn1)c1ccc(F)cc1F,MIC90,51 strains (fluconazole-susceptible),,,0.09 µg/mL
Clc1ccc(CC(Cn2ccnc2)c2c(Cl)cccc2Cl)cc1,MIC,,,,100 µg/mL
N=C(N)N1CCN(Cc2cccnc2SCc2cc(F)ccc2F)CC1,MIC50,SC5314 CAI,,,>100 µg/mL
Cc1ccccc1C(Cc1ccc(Cl)cc1)Cn1ccnc1,MIC,,,,>100 µg/mL
C/C(=N\NC(=O)CSc1ncn[nH]1)c1ccc([N+](=O)[O-])cc1,MIC,ATCC 90028,,,100 µg/mL
CNn1c(-c2ccccc2)nn(CC(C)C)c1=O,MIC,ATCC16231,,,>250 µg/mL
C/C(=N\NC(=O)CSc1n[nH]c(C)n1)c1ccc([N+](=O)[O-])cc1,MIC,ATCC 90028,,,200 µg/mL
N=C(N)N1CCN(Cc2cccnc2SCc2c(F)cc(F)cc2F)CC1,MIC50,SC5314 CAI,,,>100 µg/mL
c1ccc(-c2ccc(COC(Cn3ccnc3)c3ccccc3)cc2)cc1,MIC,CA12,,,>128 µg/mL
Cc1c(Sc2ccccc2)[n+](=O)c2cc(Cl)ccc2n1[O-],MIC,Clinical isolate 24,,,31.25 µg/mL
CNn1c(-c2ccc(C)cc2)nn(Cc2ccccc2)c1=O,MIC,ATCC16231,,,>250 µg/mL

Repeating the final 5 entries:

| structure | endpoint | strain | conditions | method | result |
|---|---|---|---|---|---|
| C/C(=N\NC(=O)CSc1n[nH]c(C)n1)c1ccc([N+](=O)[O-])cc1 | MIC | ATCC 90028 |  |  | 200 µg/mL |
| N=C(N)N1CCN(Cc2cccnc2SCc2c(F)cc(F)cc2F)CC1 | MIC50 | SC5314 CAI |  |  | >100 µg/mL |
| c1ccc(-c2ccc(COC(Cn3ccnc3)c3ccccc3)cc2)cc1 | MIC | CA12 |  |  | >128 µg/mL |
| Cc1c(Sc2ccccc2)[n+](=O)c2cc(Cl)ccc2n1[O-] | MIC | Clinical isolate 24 |  |  | 31.25 µg/mL |
| CNn1c(-c2ccc(C)cc2)nn(Cc2ccccc2)c1=O | MIC | ATCC16231 |  |  | >250 µg/mL |

Blank or dashed fields: not listed here. Rows are shuffled and stem from different studies. MIC50, MIC90 and the like: level of inhibition, or share of isolates inhibited.